# The list shows a part of the results, in another mix than the full data. Some structures show a salt or complex split into parts, the way the source records it. Calls of active or inactive are those of the source. Cut-off read from the data, not from the text of the source: active = inhibition mostly above about 52% (no sharp cut-off); inactive = mostly below about 76%.
# Assay: inhibitors of HIV fusion peptide binding, primary screen, biochemical, uHTS, fluorescence dequenching (AID 1986)
# Settings: HIV Env-mediated cell-cell fusion, fluorescence reporter; at 20 µM; stronger effect = higher value
row,SMILES,inhibition
1,CP(=S)(Nn1cnnc1)Oc1ccccc1 (stereo unspecified),inactive: 1.4%
2,CP(=O)(Nc1ccccc1Br)Oc1ccccc1 (stereo unspecified),inactive: -0.2%
3,COc1ccccc1OP(C)(=O)Nc1ccccc1 (stereo unspecified),inactive: -1%
4,Cc1cccc(C)c1OP(C)(=O)Nc1ccc(SC(F)(F)F)cc1 (stereo unspecified),inactive: 1.1%
5,CP(=O)(Nc1ccc(SC(F)(F)F)cc1)Oc1ccc(Cl)cc1 (stereo unspecified),inactive: 1.5%
6,CP(=O)(Oc1ccccc1)OC(c1ccccc1)C(F)(F)F (stereo unspecified),inactive: -1.7%
7,CCc1ccc(OP(C)(=O)N2CCN(c3ccc([N+](=O)[O-])cc3)CC2)cc1 (stereo unspecified),inactive: -1.8%
8,CP(=O)(NC(=O)Nc1ccccc1)Oc1ccccc1 (stereo unspecified),inactive: 0.8%
9,Cc1cc(C)cc(OP(C)(=O)Nc2ccc(SC(F)(F)F)cc2)c1 (stereo unspecified),inactive: 2.3%
10,CCOC(=O)c1ccc(NP(C)(=O)Oc2ccc(OC)cc2)cc1 (stereo unspecified),inactive: 5.6%
11,CCOP(C)(=S)SCC(=O)NC(C)C(=O)O (stereo unspecified),inactive: -3.3%
12,CP(=O)(Nc1ccccn1)Oc1ccc(Cl)cc1 (stereo unspecified),inactive: -0.6%
13,CCN(CC)CCCOC(=O)C(O)(c1ccccc1)c1ccccc1,inactive: -1.1%
14,O=[N+]([O-])c1ccc2c(c1)C=Nc1ccccc1O2,inactive: -2.6%
15,CC(C)(C)c1ccc(OP(C)(=O)Nc2ccc(SC(F)(F)F)cc2)cc1 (stereo unspecified),inactive: 4.6%
16,Cc1cccc(C)c1OP(C)(N)=O (stereo unspecified),inactive: -0.5%
17,COc1ccccc1OP(C)(=O)Nc1ccc(C)cc1 (stereo unspecified),inactive: 1%
18,Cc1ccc(NP(C)(=O)Oc2ccccc2)c(C)c1 (stereo unspecified),inactive: -2.6%
19,CCOC(=O)c1ccc(NP(C)(=O)Oc2ccccc2)cc1 (stereo unspecified),inactive: -1.9%
20,Cc1cc(C)cc(OP(C)(N)=O)c1 (stereo unspecified),inactive: -3.3%
21,COc1ccccc1OP(C)(=O)Nc1cc(Cl)ccc1C (stereo unspecified),inactive: -0.9%

row,SMILES,inhibition
1,COc1ccc(OP(C)(=O)Nc2cccc(F)c2)cc1 (stereo unspecified),inactive: -1.4%
2,O=C(O)c1cccc(Nc2c([N+](=O)[O-])cc([N+](=O)[O-])cc2[N+](=O)[O-])c1,inactive: -2.1%
3,CC1=NCCc2c1[nH]c1ccccc21.O=[N+]([O-])c1cc([N+](=O)[O-])c(O)c([N+](=O)[O-])c1,inactive: 3.9%
4,COc1ccccc1OP(C)(=O)Nc1cccc(Br)c1 (stereo unspecified),inactive: 2.1%
5,CCOC(=O)c1ccc(NP(C)(=O)Oc2cc(C)cc(C)c2)cc1 (stereo unspecified),inactive: 1.5%
6,Cc1cc(C)cc(OP(C)(=O)Nc2ccc(C)cc2C)c1 (stereo unspecified),inactive: -0.8%
7,Cc1ccc(C)c(NP(C)(=O)Oc2ccccc2)c1 (stereo unspecified),inactive: -1.4%
8,CP(=O)(Nc1cccc(Br)c1)Oc1ccccc1 (stereo unspecified),inactive: -1.6%
9,Cc1cc(C)cc(OP(C)(=O)Nc2ccccn2)c1 (stereo unspecified),inactive: 2%
10,O=[N+]([O-])c1cc([N+](=O)[O-])c(-n2nnc3ccccc32)c([N+](=O)[O-])c1,inactive: 0.2%
11,Cc1nc2ccc3ccccc3c2s1.O=[N+]([O-])c1cc([N+](=O)[O-])c(O)c([N+](=O)[O-])c1,inactive: -3.7%
12,O=[N+]([O-])c1cc([N+](=O)[O-])c(Nc2nnnn2CCO)c([N+](=O)[O-])c1,inactive: -3.9%
13,CCOC(=O)C(CC)C1=NC(C)(C)Cc2ccccc21.O=[N+]([O-])c1cc([N+](=O)[O-])c(O)c([N+](=O)[O-])c1 (stereo unspecified),inactive: 0.6%
14,COc1ccccc1OP(C)(=O)Nc1c(C)cccc1C (stereo unspecified),inactive: 2.6%
15,CN1CCCCC1COC(=O)C1(O)c2ccccc2CCc2ccccc21 (stereo unspecified),inactive: -0.9%
16,CP(=O)(Nc1ccc(SC(F)(F)F)cc1)Oc1ccccc1 (stereo unspecified),inactive: -1.9%
17,CCCOc1ccc(NP(C)(=O)Oc2ccc(Cl)cc2)cc1 (stereo unspecified),inactive: -1.3%
18,COc1ccc(OP(C)(=O)Nc2cccc(Br)c2)cc1 (stereo unspecified),inactive: 0.2%
19,CN(C)CCOC(=O)C(O)(c1ccccc1)C1CCCCC1 (stereo unspecified),inactive: 3.2%
20,COc1ccc(NP(C)(=O)Oc2ccccc2OC)cc1 (stereo unspecified),inactive: -0.8%
21,O=[N+]([O-])c1ccc(OP2(=O)COCCO2)cc1 (stereo unspecified),inactive: -0.7%

row,SMILES,inhibition
1,O=[N+]([O-])c1cc([N+](=O)[O-])c(NCC2CCS(=O)(=O)C2)c([N+](=O)[O-])c1 (stereo unspecified),inactive: -4.2%
2,Cc1cc(-c2cccc3ccccc23)c(C)cn1.O=[N+]([O-])c1cc([N+](=O)[O-])c(O)c([N+](=O)[O-])c1,inactive: -0.8%
3,CP(=O)(Nc1ccc(SC(F)(F)F)cc1)Oc1ccc(F)cc1 (stereo unspecified),inactive: 0.8%
4,CCOP(C)(=S)SCC(=O)NC(C)(CC)C(=O)O (stereo unspecified),inactive: -1.3%
5,CP(=O)(Nc1ccc2c(c1)OCCO2)Oc1ccccc1 (stereo unspecified),inactive: -1.7%
6,Cc1ccccc1NP(C)(=O)Nc1ccccc1C,inactive: -0.2%
7,CP(=O)(Nc1ccccc1F)Oc1ccccc1 (stereo unspecified),inactive: 2.3%
8,CC(C)c1ccc(OP(C)(=O)Nc2ccc(SC(F)(F)F)cc2)cc1 (stereo unspecified),inactive: 1.2%
9,O=C(OC1CN2CCC1CC2)c1ccc([N+](=O)[O-])cc1 (stereo unspecified),inactive: -1.2%
10,O=C(OCCN1CCN(CCOCc2ccccc2)CC1)C(O)(c1ccccc1)c1ccccc1,inactive: -1%
11,COc1ccc2c(c1O)-c1c(O)c(OC)cc3c1[C@H](C2)[N+](C)(C)CC3.O=[N+]([O-])c1cc([N+](=O)[O-])c([O-])c([N+](=O)[O-])c1[O-],inactive: 2.7%
12,CCOC(=O)c1ccc(NP(C)(=O)Oc2ccc(F)cc2)cc1 (stereo unspecified),inactive: -3.2%
13,COc1ccc(OP(C)(=O)Nc2ccc(SC(F)(F)F)cc2)cc1 (stereo unspecified),inactive: 0.5%
14,CCN(CC)CCCOC(=O)C(O)(c1ccccc1)C1CCCCC1 (stereo unspecified),inactive: 0%
15,CP(=O)(Nc1ccccc1)Oc1ccc(F)cc1 (stereo unspecified),inactive: -0.3%
16,CCCCCOc1ccc(NP(C)(=O)Oc2ccc(Cl)cc2Cl)cc1 (stereo unspecified),inactive: -0.5%
17,O=[N+]([O-])c1cc([N+](=O)[O-])c(OC2CCCCC2O)c([N+](=O)[O-])c1 (stereo unspecified),inactive: 3.3%
18,Cc1cc(C)cc(OP(C)(=O)Nc2cccc(C(F)(F)F)c2)c1 (stereo unspecified),inactive: -1.1%
19,COc1ccccc1OP(C)(=O)Nc1ccc(C)c(C)c1 (stereo unspecified),inactive: 1%
